Results from patent EP0176613A1, “A process for producing phosphoric acid and/or phosphates from wet-process phosphoric acid and an extractant used therein” (dated 1986).

Assay: Solubility of the extractant in water
Details: extractant diluted with 40% kerosine

## CCCCOP(=O)(OCCCC)OCCCC
  solubility in water: 380 PPM
